“Also recorded” adds a separate entry of the source.
Assays:
[1] = tested on: soil microbial consortium (SM); assay: Biodegradation of fluorinated amino acids by growing and resting cells of soil bacteria; type: cell-based, garden soil bacteria; conditions: 48 h; for degree of amino acid defluorination (rank order): comparison of relative 19F NMR resonance heights
[2] = tested on: cell-free extract of the microbial consortium; assay: Defluorinating activity in cell-free extract of the soil microbial consortium; type: biochemical, garden soil bacteria; conditions: for fluoride release in cell-free extract of soil consortium: 0.2 mg substrate in 1 mL cell-free extract (20 mM HEPES, pH 7.0), 6 h, 19F NMR, boiled extract as control

Row | SMILES | other fluorometabolites from amino acid degradation by soil microbes ([1]; 19F NMR) | degree of amino acid defluorination (rank order) [1] | fluoride release in cell-free extract of soil consortium [2] | degradation of amino acid by soil microbes ([1]; 19F NMR, only the fluoride resonance observed) | product of defluorination in cell-free extract of soil consortium ([2]; MfeGly with active vs boiled cell-free extract, GC-MS after silylation)
1 | N[C@@H](CC(F)(F)F)C(=O)O [TfeGly, (2S)-4,4,4-trifluoroethylglycine] | other fluorometabolites produced | MfeGly > DfeGly > TfeGly | not defluorinated; also recorded: little or no fluoride release |  | 
2 | N[C@@H](CC(F)F)C(=O)O [DfeGly, (2S)-4,4-difluoroethylglycine] | other fluorometabolites produced | MfeGly > DfeGly > TfeGly | a small fluoride signal was observed; also recorded: little or no fluoride release |  | 
3 | N[C@@H](CCF)C(=O)O [MfeGly, (2S)-4-monofluoroethylglycine] |  | MfeGly > DfeGly > TfeGly | readily detected | completely degraded | homoserine
